Data: article PMC10119312, “Structural insights into RNase J that plays an essential role in Mycobacterium tuberculosis RNA metabolism” (Nature Communications, 2023)
For at least one entry, the source does not settle the construct or the ends of the probe. At least one verdict rests on a figure or table, not on a statement of the authors. Tags and fusion partners may be left off the protein sequences shown.

Assays:
[1] = target: T1, Mtb-RNase J 1-470/D85A (Mycobacterium tuberculosis H37Rv) (UniProt P9WGZ9); test: EMSA; conditions: 0.5 uM RNA, reference for 1-450/D85A; recombinant protein; residues 1-470; protein details: N-terminal 6xHis-SUMO, removed by ULP1
T1 sequence (looked up): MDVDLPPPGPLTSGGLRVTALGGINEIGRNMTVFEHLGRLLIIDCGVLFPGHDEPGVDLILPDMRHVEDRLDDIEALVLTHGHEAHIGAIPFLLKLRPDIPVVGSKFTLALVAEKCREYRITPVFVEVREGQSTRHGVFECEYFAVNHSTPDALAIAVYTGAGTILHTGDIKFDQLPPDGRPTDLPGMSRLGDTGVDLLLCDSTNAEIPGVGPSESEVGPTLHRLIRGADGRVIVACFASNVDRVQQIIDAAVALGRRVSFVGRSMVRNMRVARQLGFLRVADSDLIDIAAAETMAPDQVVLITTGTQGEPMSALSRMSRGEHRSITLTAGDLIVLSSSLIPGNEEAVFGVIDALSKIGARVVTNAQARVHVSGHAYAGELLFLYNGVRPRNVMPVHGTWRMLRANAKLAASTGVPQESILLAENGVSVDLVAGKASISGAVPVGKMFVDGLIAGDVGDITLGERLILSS

[2] = target: T2, Mtb-RNase J D85A (catalytically inactive) (Mycobacterium tuberculosis H37Rv) (UniProt P9WGZ9); test: EMSA; conditions: 0.5 uM RNA; recombinant protein; residues 1-558; protein details: N-terminal 6xHis-SUMO, removed by ULP1
T2 sequence (looked up): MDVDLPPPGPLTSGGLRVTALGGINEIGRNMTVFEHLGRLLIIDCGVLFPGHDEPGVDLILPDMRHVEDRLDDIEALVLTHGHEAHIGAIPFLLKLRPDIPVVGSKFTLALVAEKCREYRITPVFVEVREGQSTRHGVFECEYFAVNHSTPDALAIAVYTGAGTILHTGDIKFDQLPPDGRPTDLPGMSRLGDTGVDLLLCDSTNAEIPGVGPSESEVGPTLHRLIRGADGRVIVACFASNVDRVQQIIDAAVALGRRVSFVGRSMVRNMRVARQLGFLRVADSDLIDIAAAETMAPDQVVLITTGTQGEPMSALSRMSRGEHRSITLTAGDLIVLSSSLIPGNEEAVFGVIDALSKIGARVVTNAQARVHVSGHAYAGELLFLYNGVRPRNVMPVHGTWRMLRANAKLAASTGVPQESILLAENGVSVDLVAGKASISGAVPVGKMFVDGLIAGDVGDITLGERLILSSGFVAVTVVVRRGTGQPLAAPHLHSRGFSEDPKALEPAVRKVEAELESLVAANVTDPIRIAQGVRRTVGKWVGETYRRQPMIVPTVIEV

UUCCGUUUAUUCAUACUUCA
binding result [1]: binds
binding result [2]: binds
